PubChem BioAssay AID624099, ICCB-Longwood | 2012
Test: 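Human genes that papillomavirus E2 requires to repress the HPV18 LCR promoter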 (primary screen). Cells: human C33A cervical carcinoma cells (HPV-negative) stably expressing BPV1 E2 and an HPV18 LCR luciferase reporter. Reagent: siRNA pool against human genes, 40 nM. Timing: 72 h. Read-out: 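Per-well luciferase luminescence, z-scored on each plate against the plate mean and SD with control wells left out, then averaged across three replicate plates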. Reading the numbers: mean z-score and z-score: higher = stronger reporter signal, weaker E2 silencing. Hit rule: 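Mean z ≥ 2 together with z ≥ 2 in two or more of the three replicates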.
The whole screen tested about 21,000 reagents; this is an unselected part. Over the whole deposit, 497 (2.4%) were called active. 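Higher z means weaker E2 silencing; only reporter increases were scored, and knock-downs that hurt cell survival may mask genuine repressor factors.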 Entries without a mark were called inactive.

gene	mean z-score	z-score, replicate A	z-score, replicate B	z-score, replicate C
DAZ1	1.16	1.09	1.02	1.38
PBDC1	-1.01	-0.68	-0.94	-1.4
RMP64	0.13	0.35	-0.14	0.17
MLANA	1.04	1.06	0.91	1.14
LOC286359	-0.26	-0.09	-0.18	-0.5
HS6ST2	0.34	0.11	0.44	0.46
CASP7	0.45	-0.07	0.61	0.81
RGS9	0.15	0.4	-0.27	0.33
PGM3	-1.15	-1.19	-0.89	-1.37
INTS15	0.22	0.13	0.29	0.23
NSA2	-0.95	-1.01	-0.82	-1.02

3 of these entries, reformatted.
gene | mean z-score | z-score, replicate A | z-score, replicate B | z-score, replicate C
RMP64 | 0.13 | 0.35 | -0.14 | 0.17
MLANA | 1.04 | 1.06 | 0.91 | 1.14
LOC286359 | -0.26 | -0.09 | -0.18 | -0.5

Further reagents:
gene	mean z-score	z-score, replicate A	z-score, replicate B	z-score, replicate C
TMEM139	-0.84	-0.85	-0.81	-0.85
CEACAM6	-1.76	-1.68	-1.83	-1.76
MADCAM1	1.58	1.59	1.57	1.57
EVC	-0.61	-0.77	-0.69	-0.37
LOC402596 (retired record)	1.84	1.73	2.03	1.76
LOC285995 (retired record)	0.32	-0.15	0.15	0.98
CXorf65	-0.31	-0.05	-0.42	-0.47
NTM	1.6	1.85	1.19	1.76
ZNF295-AS1	0.6	0.82	0.51	0.47
REEP1	0.76	0.55	0.79	0.94
USP17L8	-2	-1.9	-2.05	-2.05
AKAP8L	-0.27	-0.08	-0.42	-0.29
